Reference: paper PMC7824103 (Viruses, 2020)

Sequences of proteins named here, by UniProt entry; tags and fusion partners are left off. A change or cut given only in a name is not applied to a line headed by its entry.
UniProt Q05128: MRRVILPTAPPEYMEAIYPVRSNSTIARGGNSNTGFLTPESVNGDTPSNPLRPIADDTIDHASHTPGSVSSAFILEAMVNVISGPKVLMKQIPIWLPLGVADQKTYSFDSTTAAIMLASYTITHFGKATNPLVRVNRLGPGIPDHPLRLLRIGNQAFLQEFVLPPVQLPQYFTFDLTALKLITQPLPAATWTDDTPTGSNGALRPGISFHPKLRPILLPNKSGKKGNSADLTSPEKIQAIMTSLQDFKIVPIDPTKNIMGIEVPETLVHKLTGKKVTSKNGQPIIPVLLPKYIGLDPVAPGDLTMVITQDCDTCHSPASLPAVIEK

Target: EBOV VP40 (Zaire ebolavirus, UniProt Q05128)

Structure (SMILES) | effect on VP40 perimembrane | VP40 subcellular localization (fluorescent images) (150 and 300 nM)
N#C[C@@]1(c2ccc3c(N)ncnn23)O[C@H](CO)[C@@H](O)[C@H]1O | neither | 
CCC(CC)COC(=O)[C@H](C)N[P@](=O)(OC[C@H]1O[C@@](C#N)(c2ccc3c(N)ncnn23)[C@H](O)[C@@H]1O)Oc1ccccc1 [Remdesivir, remdesivir, reference compound] | neither | 
NC(=O)c1cn([C@@H]2O[C@H](CO)[C@@H](O)[C@H]2O)c2ncnc(N)c12 [Sangivamycin, 4-amino-7-(β-D-ribofuranosyl)pyrrolo[2,3-d]pyrimidine-5-carboxamide] |  | homogenous VP40 subcellular localization
